For experiment [1], the system named is HIV-1 pseudotyped with wild type Env from strain HXB2 (HOS-CD4 target cells). Type of experiment: cell-based. Here is the method:
All viral infectivity and cell-cell fusion experiments were performed as described in Chan, D., et. al., 1998, Proc. Natl. Acad. Sci. U.S.A. 95, 15613-15617. Briefly, the potency of C-peptides in inhibiting viral infection was determined using recombinant luciferase-expressing HIV-1 as described by Malashkevich, V. N., et. al., 1998, Proc. Natl. Acad. Sci. USA 95, 9134-9139. To produce virus, 293T cells were co-transfected with the envelope-deficient HIV-1 genome NL43LucR-E-(21) and the HXB2 gp160 expression vector pCMVHXB2 gp160 using calcium phosphate. Viral supernatants were cleared of cellular debris by low-speed centrifugation and used to infect HOS-CD4/Fusin cells (N. Landau, National Institutes of Health AIDS Reagent Program) in the presence of varying concentrations of C-peptide, ranging from 0 to 200 nM. Cells were harvested 48 hr postinfection, and luciferase activity was measured in a Wallac (Gaithersburg, Md.) AutoLumat LB953 luminometer. The IC50 is the peptide concentration that results in a 50% decrease in activity relative to control samples lacking peptide. For each peptide, data from three experiments were fit to a Langmuir equation [y=k/(1+([peptide]/IC50)], where y=luciferase activity and k is a scaling constant] to obtain the IC50 values.
HOS-CD4-Les cells were infected with HIV-1 pseudotyped with Env from HXB2 HIV-1 strain of either the wild type sequence or one of three variant sequences that confer resistance to C-peptides. The sequences of Res1 and Res2 Env, defined in FIG. 1, contain mutations in the gp41 HR1 region that decrease C-peptide binding affinity. The sequence of Res3 contains a mutation in the gp41 HR2 region (N637K) that confers partial resistance by enhancing the rate of viral membrane fusion. […]
The C37 variants generated were able to overcome resistance conferred by the HR1 region mutations. […] Infection took place in the presence and absence of C37 (FIG. 2A), C37-KYI (FIG. 2B) or (C37-GC)2 (FIG. 2C) and quantified by the expression of a luciferase-reporter construct. […]

The target of experiment [2] is T1, N36, structural mimic of the gp41 HR1 region (Human immunodeficiency virus type 1 group M subtype B, UniProt P04578).
T1 construct: a structural mimic of the gp41 HR1 region, the N-peptide known as N36
Type of experiment: binding, HIV-1. The text has this: In FIG. 2, viruses pseudotyped with either wild type Env (closed squares) or V549E mutant Env (Res1, closed circles) from strain HXB2 were utilized to infect HOS-CD4-Les target cells. […] The Hr1 and HR2 regions of three gp41 form an intermediate structure called the trimer-of-hairpins which is necessary for the viral entry process and membrane fusion with the host membrane.

Like-named read-outs stand apart in the source and are kept apart here.

One may read the IC50 as the concentration at which inhibition is half-maximal. In the case of `CC[C@H](C)[C@H](NC(=O)[C@H](CC(C)C)NC(=O)[C@H](CO)NC(=O)[C@H](Cc1c[nH]cn1)NC(=O)[C@@H](NC(=O)[C@H](CC(C)C)NC(=O)[C@H](CO)NC(=O)[C@@H](NC(=O)[C@H](Cc1ccc(O)cc1)NC(=O)[C@H](CCCCN)NC(=O)[C@H](CC(N)=O)NC(=O)[C@@H](NC(=O)[C@H](CCC(=O)O)NC(=O)[C@H](CCCNC(=N)N)NC(=O)[C@H](CC(=O)O)NC(=O)[C@H](Cc1c[nH]c2ccccc12)NC(=O)[C@H](CCC(=O)O)NC(=O)[C@H](CCSC)NC(=O)[C@H](Cc1c[nH]c2ccccc12)NC(=O)[C@@H](NC(=O)[C@@H](NC(=O)[C@H](Cc1c[nH]cn1)NC(=O)CNC(=O)CN)[C@@H](C)O)[C@@H](C)O)[C@@H](C)CC)[C@@H](C)CC)[C@@H](C)CC)C(=O)N[C@@H](CCC(=O)O)C(=O)N[C@@H](CCC(=O)O)C(=O)N[C@@H](CO)C(=O)N[C@@H](CCC(N)=O)C(=O)N[C@@H](CC(N)=O)C(=O)N[C@@H](CCC(N)=O)C(=O)N[C@@H](CCC(N)=O)C(=O)N[C@@H](CCC(=O)O)C(=O)N[C@@H](CCCCN)C(=O)N[C@@H](CC(N)=O)C(=O)N[C@@H](CCC(=O)O)C(=O)N[C@@H](CCC(N)=O)C(=O)N[C@@H](CCC(=O)O)C(=O)N[C@@H](CC(C)C)C(=O)N[C@@H](CC(C)C)C(=O)NCC(=O)NCC(=O)N[C@@H](Cc1c[nH]cn1)C(=O)N[C@@H](Cc1c[nH]cn1)C(=O)N[C@@H](Cc1c[nH]cn1)C(=O)N[C@@H](Cc1c[nH]cn1)C(=O)N[C@@H](Cc1c[nH]cn1)C(=O)N[C@@H](Cc1c[nH]cn1)C(=O)O` [C37-KYI], the IC50 in experiment [1] (Table 1, HXB2 wild type Env, HOS-CD4-Les cells, mean of 2 or 3 titrations, read-out: IC50 (±SEM), WT Env) is 1 nM; in experiment [1] (Table 2, read-out: IC50, WT HXB2), 1 ± 0.1 nM; in experiment [1] (read-out: IC50 against viruses pseudotyped with EnvHXB2), approximately 1 nM. The “fold lower Kd than wild type C37” value in experiment [2] was “more than 20 fold”.

For the origin of these results see US20100029568A1, “TIGHTER-BINDING C-PEPTIDE INHIBITORS OF HIV-1 ENTRY” (priority 2007, published 2010).
